Source: patent US10556926B2, “Synthetic artificial peptides with antimicrobial effect” (priority 2014, dated 2020)
No end group written: not given here.

Tested on: Staphylococcus xylosus
Details: LD50/MIC; LD50 of 128 used where LD50 above measured range; parentheses: MTC established but no LD50
Description: The minimum inhibitory concentration (MIC) of the peptides was carried out by way of example against gram(−) E. coli DH5α (and gram(+) Staphylococcus xylosus (both Deutsche Sammlung von Mikroorganismen and Zellkulturen, DSMZ) in a standardized microdilution method according to the general guidelines of the CLSI (Clinical and Laboratory Standards Institute 2006) and EUCAST (European Committee for Antimicrobial Susceptibility Testing of the European Society of Clinical Microbiology and Infectious Diseases 2003) with slight adaptations to the investigation of cationic antimicrobial peptides (Wiegand et al. 2008). The bacteria cells were cultivated in Mueller-Hinton-Boullion (MHB) to an optical density of 0.4 to 0.6 at 600 nm wavelength, corresponding to about 4·10^8 bacteria per ml. Then, the bacteria cultures were diluted to a bacteria concentration of about 1·10^5 bacteria per ml in sterile MHB. Using the peptides, series of 2-fold dilutions starting at 128 μM to the smallest dilution of 0.5 μM in MHB were prepared. The peptide dilutions were mixed with the dilute bacteria cultures in a […] in the chambers of a 96-well polypropylene microtiter plate (Starlab, Hamburg, Germany), so that the peptides were present in an end concentration between 64 μM and 0.25 μM at a bacteria concentration of 5·10^4 bacteria/ml. Sterile MHB served as negative control, and the positive control used as the corresponding bacteria concentration in MHB without the addition of peptide. The microtiter plates were incubated for 18 hours at 37° C. with shaking at 120 rpm in a climatically controlled chamber. After the incubation, the bacteria concentration was determined by renewed absorption measurement at a wavelength of 600 nm.

Substance: KILILIKRK-OH [N4]
- Therapeutic ratio S. xylosus: 3.6

Substance: KRKRKILILIKRK-OH [N1]
- Therapeutic ratio S. xylosus: 72

Substance: MPRRRRSSSRPVRRRRRPRVSRRRRRRGGRRR (Protamine)
- Therapeutic ratio S. xylosus: (256)
